Experimental data as given in article PMC10852988.

Legend:
Experiment in all cases: SPR
Settings in all cases: domain or fragment
S309 = biological target: S309
P2B-2F6 = biological target: P2B-2F6
CR3022 = biological target: CR3022
CB6 = biological target: CB6

Substance | Kd (S309) | Kd (P2B-2F6) | Kd (CR3022) | Kd (CB6)
RBD 1 (synthetic homogeneous RBD with sialylated biantennary N-glycans at N331 and N343, linker GGG and Tpep) (from UniProt P0DTC2 319-537) | 8.83 nM | 123 nM | 37.4 nM | 
RBD 2 (synthetic homogeneous RBD with asialo biantennary N-glycans at N331 and N343, linker GGG and Tpep) (from UniProt P0DTC2 319-537) | 4.25 nM | 90.6 nM |  | 
RBD 4 (synthetic homogeneous RBD with asialo biantennary N-glycans at N331 and N343, without Tpep) (from UniProt P0DTC2 319-537) | 5.93 nM |  | 29.2 nM | 59.2 nM
nonglycosylated RBD 6 (RBD 319–537 with Met at the N-terminus) (from UniProt P0DTC2 319-537) |  | 50.5 nM | 11.7 nM | 30.6 nM
